From paper PMC9270327 (Communications Biology, 2022)

Chains of the proteins cited; added tags and fusions are not shown. Residues count along the entry.
UniProt O15393, whole entry: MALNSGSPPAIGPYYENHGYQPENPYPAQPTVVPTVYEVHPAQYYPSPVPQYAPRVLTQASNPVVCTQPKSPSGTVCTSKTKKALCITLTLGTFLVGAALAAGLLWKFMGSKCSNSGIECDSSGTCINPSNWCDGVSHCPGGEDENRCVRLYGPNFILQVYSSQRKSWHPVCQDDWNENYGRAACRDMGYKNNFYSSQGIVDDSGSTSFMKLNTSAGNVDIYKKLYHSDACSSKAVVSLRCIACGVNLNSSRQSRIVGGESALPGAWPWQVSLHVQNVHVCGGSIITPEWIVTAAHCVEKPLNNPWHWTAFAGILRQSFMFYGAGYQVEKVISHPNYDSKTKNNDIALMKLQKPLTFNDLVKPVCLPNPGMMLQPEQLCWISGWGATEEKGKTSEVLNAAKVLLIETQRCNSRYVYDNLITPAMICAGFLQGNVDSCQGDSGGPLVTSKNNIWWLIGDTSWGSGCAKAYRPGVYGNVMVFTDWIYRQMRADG
UniProt Q9Y5Y6, whole entry: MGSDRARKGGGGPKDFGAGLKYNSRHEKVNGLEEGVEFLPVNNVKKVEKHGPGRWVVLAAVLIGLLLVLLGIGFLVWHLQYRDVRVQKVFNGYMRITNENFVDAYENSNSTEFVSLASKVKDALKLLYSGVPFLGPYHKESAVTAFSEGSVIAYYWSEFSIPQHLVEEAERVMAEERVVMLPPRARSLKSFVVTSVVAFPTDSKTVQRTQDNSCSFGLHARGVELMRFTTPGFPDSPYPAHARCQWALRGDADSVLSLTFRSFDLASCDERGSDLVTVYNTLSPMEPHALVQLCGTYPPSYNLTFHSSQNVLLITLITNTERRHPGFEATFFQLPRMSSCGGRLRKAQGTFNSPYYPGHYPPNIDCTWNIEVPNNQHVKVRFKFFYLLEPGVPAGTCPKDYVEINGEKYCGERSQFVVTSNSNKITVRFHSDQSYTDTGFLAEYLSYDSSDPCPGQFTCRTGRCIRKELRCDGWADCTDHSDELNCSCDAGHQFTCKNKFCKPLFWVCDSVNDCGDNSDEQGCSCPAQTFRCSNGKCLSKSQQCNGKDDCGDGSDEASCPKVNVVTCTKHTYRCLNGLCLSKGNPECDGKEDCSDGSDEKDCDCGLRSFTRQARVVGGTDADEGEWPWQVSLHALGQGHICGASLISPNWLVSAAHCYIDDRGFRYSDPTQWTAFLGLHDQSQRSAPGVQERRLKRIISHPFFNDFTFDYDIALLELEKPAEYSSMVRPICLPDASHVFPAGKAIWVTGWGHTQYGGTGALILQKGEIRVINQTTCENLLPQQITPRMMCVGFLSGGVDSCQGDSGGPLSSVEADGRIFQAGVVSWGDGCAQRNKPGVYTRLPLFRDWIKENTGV
UniProt P00742, 235-488 limits assumed: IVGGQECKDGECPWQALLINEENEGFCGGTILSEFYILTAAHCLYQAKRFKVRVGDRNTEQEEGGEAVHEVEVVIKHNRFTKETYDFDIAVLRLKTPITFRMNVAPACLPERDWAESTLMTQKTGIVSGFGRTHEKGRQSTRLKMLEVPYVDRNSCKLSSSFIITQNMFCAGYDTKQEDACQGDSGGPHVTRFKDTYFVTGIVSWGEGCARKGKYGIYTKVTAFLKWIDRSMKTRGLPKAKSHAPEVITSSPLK
UniProt P00742, 41-179 partner limits assumed: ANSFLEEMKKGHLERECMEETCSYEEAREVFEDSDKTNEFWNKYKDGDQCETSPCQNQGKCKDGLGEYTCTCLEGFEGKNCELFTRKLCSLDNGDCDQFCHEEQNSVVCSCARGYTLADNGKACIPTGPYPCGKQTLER

Tests used:
[1] = biological target: cellular TMPRSS2 activity, Caco-2 cells (Homo sapiens, UniProt O15393); settings: for cellular protease activity on Caco-2 cells, Mean (Fig. 4a): normalized, 0 nM = 100
[2] = test system: SARS-CoV-2 Wuhan-Hu-1, Caco-2 cells; assay: SARS-CoV-2 inhibition assay, Wuhan-Hu-1 (in-cell ELISA); settings: for SARS-CoV-2 infection, Mean (0 nM = 100): Fig. 6a, Wuhan-Hu-1; for IC50: read-out: IC50 SARS-CoV-2 Wuhan-Hu-1, Caco-2 cells
[3] = test system: lentiviral pseudoparticles carrying SARS-CoV-2 Omicron BA.1 (B.1.1.529) spike, Caco-2 cells; assay: Pseudovirus inhibition assay, Omicron BA.1 spike; settings: for SARS-CoV-2 spike driven entry, Mean (0 nM = 100): Fig. 5e, Omicron BA.1 spike pseudoparticles
[4] = test system: lentiviral pseudoparticles carrying SARS-CoV-2 Alpha (B.1.1.7) spike, Caco-2 cells; assay: Pseudovirus inhibition assay, Alpha spike; settings: for SARS-CoV-2 spike driven entry, Mean (0 nM = 100): Fig. 5b, Alpha spike pseudoparticles
[5] = test system: lentiviral pseudoparticles carrying SARS-CoV-2 Beta (B.1.351) spike, Caco-2 cells; assay: Pseudovirus inhibition assay, Beta spike; settings: for SARS-CoV-2 spike driven entry, Mean (0 nM = 100): Fig. 5c, Beta spike pseudoparticles
[6] = biological target: recombinant human matriptase (Homo sapiens, UniProt Q9Y5Y6); assay: Enzyme inhibition assay with purified matriptase (Ki, dose-response); assay type: biochemical; settings: quotient Ki matriptase / Ki TMPRSS2
[7] = test system: SARS-CoV-2 Beta (B.1.351), Caco-2 cells; assay: SARS-CoV-2 inhibition assay, VOC Beta (in-cell ELISA); settings: for SARS-CoV-2 infection, Mean (0 nM = 100): Fig. 6d, VOC Beta; for IC50: read-out: IC50 SARS-CoV-2 Beta, Caco-2 cells
TMPRSS2 = TMPRSS2 (Homo sapiens, UniProt O15393); settings: for TMPRSS2 activity, Mean (Fig. 2a): normalized, 0 nM = 100
[8] = test system: lentiviral pseudoparticles carrying SARS-CoV-2 Delta (B.1.617.2) spike, Caco-2 cells; assay: Pseudovirus inhibition assay, Delta spike; settings: for SARS-CoV-2 spike driven entry, Mean (0 nM = 100): Fig. 5d, Delta spike pseudoparticles
[9] = biological target: TMPRSS2 expressed in HEK293T cells (Homo sapiens, UniProt O15393); assay: Inhibition of cellular TMPRSS2 activity on HEK293T cells transiently expressing TMPRSS2; assay type: cell-based; settings: 2 h; for normalized fluorescence intensity, HEK293T TMPRSS2, Mean (Fig. 4b): corrected for mock-transfected cells
factor Xa = factor Xa (Homo sapiens, UniProt P00742); assay: Enzyme inhibition assay with purified factor Xa (Ki, dose-response); assay type: biochemical; settings: for factor Xa activity, Mean (Fig. 2d): normalized, 0 nM = 100
[10] = test system: SARS-CoV-2 Alpha (B.1.1.7), Caco-2 cells; assay: SARS-CoV-2 inhibition assay, VOC Alpha (in-cell ELISA); settings: for SARS-CoV-2 infection, Mean (0 nM = 100): Fig. 6c, VOC Alpha; for IC50: read-out: IC50 SARS-CoV-2 Alpha, Caco-2 cells
[11] = test system: lentiviral pseudoparticles carrying SARS-CoV-2 Wuhan-Hu-1 spike, Caco-2 cells; assay: Pseudovirus inhibition assay, wild-type (Wuhan-Hu-1) spike; settings: for SARS-CoV-2 spike driven entry, Mean (0 nM = 100): Fig. 5a, Wuhan-Hu-1 spike pseudoparticles
[12] = in-cell ELISA 2 days post infection

With `CC(=O)N[C@@H](CC(N)=O)C(=O)N1CCC[C@H]1C(=O)NC(CCCNC(=N)N)C(=O)c1nc2ccccc2s1` (stereo partly shown) the “cellular protease activity on Caco-2 cells, Mean (Fig. 4a)” value (“cellular protease activity” for short) ([1]; 0.1 nM) was 91.9048, the “cellular protease activity” value ([1]; 1 nM) was 92.381 and the “cellular protease activity” value ([1]; 10 nM) was 51.6667. For the same compound, the “cellular protease activity” value ([1]; 100 nM) was 22.619, the “cellular protease activity” value ([1]; 1000 nM) was 2.619 and the “cellular protease activity” value ([1]; 10000 nM) was 0.9524. For the same compound, the “cellular protease activity” value ([1]; 100000 nM) was 1.071, the IC50 ([1]; read-out: IC50 Caco2, cell-mediated proteolysis of Boc-Gln-Ala-Arg-AMC, 30 min preincubation) was 12.7 nM and the “SARS-CoV-2 infection, Mean (0 nM = 100)” value ([2]; compound 32 nM) was 104.615. For the same compound, the “SARS-CoV-2 infection, Mean (0 nM = 100)” value ([2]; compound 160 nM) was 108.018, the “SARS-CoV-2 infection, Mean (0 nM = 100)” value ([2]; compound 800 nM) was 104.617 and the “SARS-CoV-2 infection, Mean (0 nM = 100)” value ([2]; compound 4000 nM) was 56.7382. The “SARS-CoV-2 infection, Mean (0 nM = 100)” value ([2]; compound 20000 nM) was 8.19, the “SARS-CoV-2 infection, Mean (0 nM = 100)” value ([2]; compound 100000 nM) was 0.9597 and the IC50 ([2]; 2 days post infection) was 4700 nM. For the same compound, the IC50 [2, 12] was 4650 nM, the “SARS-CoV-2 spike driven entry, Mean (0 nM = 100)” value (shortened to “SARS-CoV-2 spike driven entry”) ([3]; compound 3.2 nM) was 103.951 and the “SARS-CoV-2 spike driven entry” value ([3]; compound 16 nM) was 90.1812. The “SARS-CoV-2 spike driven entry” value ([3]; compound 80 nM) was 63.0313, the “SARS-CoV-2 spike driven entry” value ([3]; compound 400 nM) was 37.1174 and the “SARS-CoV-2 spike driven entry” value ([3]; compound 2000 nM) was 15.0517. The “SARS-CoV-2 spike driven entry” value ([3]; compound 10000 nM) was 3.7, the “SARS-CoV-2 spike driven entry” value ([3]; compound 50000 nM) was 4.974 and the IC50 ([3]; read-out: IC50 pseudotyped lentivirus Omicron BA.1, Caco-2 cells, luciferase 2 days post transduction) was 196 nM. The “SARS-CoV-2 spike driven entry” value ([4]; compound 3.2 nM) was 90.773, the “SARS-CoV-2 spike driven entry” value ([4]; compound 16 nM) was 82.272 and the “SARS-CoV-2 spike driven entry” value ([4]; compound 80 nM) was 71.344. The “SARS-CoV-2 spike driven entry” value ([4]; compound 400 nM) was 45.062, the “SARS-CoV-2 spike driven entry” value ([4]; compound 2000 nM) was 19.8955 and the “SARS-CoV-2 spike driven entry” value ([4]; compound 10000 nM) was 3.898. For the same compound, the “SARS-CoV-2 spike driven entry” value ([4]; compound 50000 nM) was 1.112, the IC50 ([4]; read-out: IC50 pseudotyped lentivirus Alpha, Caco-2 cells, luciferase 2 days post transduction) was 261 nM and the “SARS-CoV-2 spike driven entry” value ([5]; compound 3.2 nM) was 68.321. For the same compound, the “SARS-CoV-2 spike driven entry” value ([5]; compound 16 nM) was 77.68, the “SARS-CoV-2 spike driven entry” value ([5]; compound 80 nM) was 60.2285 and the “SARS-CoV-2 spike driven entry” value ([5]; compound 400 nM) was 49.373. The “SARS-CoV-2 spike driven entry” value ([5]; compound 2000 nM) was 15.6375, the “SARS-CoV-2 spike driven entry” value ([5]; compound 10000 nM) was 3.6185 and the “SARS-CoV-2 spike driven entry” value ([5]; compound 50000 nM) was 0.9345. The IC50 ([5]; read-out: IC50 pseudotyped lentivirus Beta, Caco-2 cells, luciferase 2 days post transduction) was 153 nM, the Selectivity index Matriptase [6] was 2.1 and the “SARS-CoV-2 infection, Mean (0 nM = 100)” value ([7]; compound 32 nM) was 88.3299. For the same compound, the “SARS-CoV-2 infection, Mean (0 nM = 100)” value ([7]; compound 160 nM) was 85.7403, the “SARS-CoV-2 infection, Mean (0 nM = 100)” value ([7]; compound 800 nM) was 74.777 and the “SARS-CoV-2 infection, Mean (0 nM = 100)” value ([7]; compound 4000 nM) was 79.2031. The “SARS-CoV-2 infection, Mean (0 nM = 100)” value ([7]; compound 20000 nM) was 1.415, the “SARS-CoV-2 infection, Mean (0 nM = 100)” value ([7]; compound 100000 nM) was -2.338 and the IC50 ([7]; 2 days post infection) was 6300 nM. For the same compound, the IC50 [7, 12] was 6260 nM, the “TMPRSS2 activity, Mean (Fig. 2a)” value (TMPRSS2; 0.05 nM) was 103.592 and the “TMPRSS2 activity, Mean (Fig. 2a)” value (TMPRSS2; 0.5 nM) was 102.086. The “TMPRSS2 activity, Mean (Fig. 2a)” value (TMPRSS2; 5 nM) was 54.1136, the “TMPRSS2 activity, Mean (Fig. 2a)” value (TMPRSS2; 50 nM) was 9.965 and the “TMPRSS2 activity, Mean (Fig. 2a)” value (TMPRSS2; 500 nM) was 1.043. The “TMPRSS2 activity, Mean (Fig. 2a)” value (TMPRSS2; 5000 nM) was 0, the “TMPRSS2 activity, Mean (Fig. 2a)” value (TMPRSS2; 50000 nM) was 0.1159 and the “TMPRSS2 activity, Mean (Fig. 2a)” value (TMPRSS2; 500000 nM) was -0.4635. The “fold more active than FOY-251 against isolated TMPRSS2” value (TMPRSS2; ratio of Ki values) was 2–3 fold, the “SARS-CoV-2 spike driven entry” value ([8]; compound 3.2 nM) was 88.2203 and the “SARS-CoV-2 spike driven entry” value ([8]; compound 16 nM) was 83.5589. The “SARS-CoV-2 spike driven entry” value ([8]; compound 80 nM) was 74.0893, the “SARS-CoV-2 spike driven entry” value ([8]; compound 400 nM) was 48.0755 and the “SARS-CoV-2 spike driven entry” value ([8]; compound 2000 nM) was 17.171. For the same compound, the “SARS-CoV-2 spike driven entry” value ([8]; compound 10000 nM) was 3.181, the “SARS-CoV-2 spike driven entry” value ([8]; compound 50000 nM) was 0.8148 and the IC50 ([8]; read-out: IC50 pseudotyped lentivirus Delta, Caco-2 cells, luciferase 2 days post transduction) was 286 nM. The “normalized fluorescence intensity, HEK293T TMPRSS2, Mean (Fig. 4b)” value (“normalized fluorescence intensity” for short) ([9]; 0.5 nM) was 56.545, the “normalized fluorescence intensity” value ([9]; 5 nM) was 47.24 and the “normalized fluorescence intensity” value ([9]; 50 nM) was 21.26. The “normalized fluorescence intensity” value ([9]; 500 nM) was 6.37, the “normalized fluorescence intensity” value ([9]; 5000 nM) was 2.07 and the “normalized fluorescence intensity” value ([9]; 50000 nM) was -9.245. The IC50 ([9]; read-out: IC50 HEK293T TMPRSS2, corrected for mock-transfected HEK293T cells) was 2.2 nM, the “factor Xa activity, Mean (Fig. 2d)” value (factor Xa; 0.02 nM) was 95.1086 and the “factor Xa activity, Mean (Fig. 2d)” value (factor Xa; 0.04 nM) was 92.1131. For the same compound, the “factor Xa activity, Mean (Fig. 2d)” value (factor Xa; 0.2 nM) was 91.4826, the “factor Xa activity, Mean (Fig. 2d)” value (factor Xa; 2 nM) was 90.5364 and the “factor Xa activity, Mean (Fig. 2d)” value (factor Xa; 20 nM) was 72.2396. The “factor Xa activity, Mean (Fig. 2d)” value (factor Xa; 200 nM) was 33.9124, the “factor Xa activity, Mean (Fig. 2d)” value (factor Xa; 10000 nM) was 7.413 and the “factor Xa activity, Mean (Fig. 2d)” value (factor Xa; 100000 nM) was 8.99. The Selectivity index Factor Xa (factor Xa; quotient Ki factor Xa / Ki TMPRSS2) was 16.4, the “SARS-CoV-2 infection, Mean (0 nM = 100)” value ([10]; compound 32 nM) was 94.3889 and the “SARS-CoV-2 infection, Mean (0 nM = 100)” value ([10]; compound 160 nM) was 95.9912. The “SARS-CoV-2 infection, Mean (0 nM = 100)” value ([10]; compound 800 nM) was 93.3105, the “SARS-CoV-2 infection, Mean (0 nM = 100)” value ([10]; compound 4000 nM) was 86.2794 and the “SARS-CoV-2 infection, Mean (0 nM = 100)” value ([10]; compound 20000 nM) was 2.126. The “SARS-CoV-2 infection, Mean (0 nM = 100)” value ([10]; compound 100000 nM) was -2.404, the IC50 ([10]; 2 days post infection) was 6800 nM and the IC50 [10, 12] was 6780 nM. For the same compound, the “SARS-CoV-2 spike driven entry” value ([11]; compound 32 nM) was 85.246, the “SARS-CoV-2 spike driven entry” value ([11]; compound 160 nM) was 76.54 and the “SARS-CoV-2 spike driven entry” value ([11]; compound 800 nM) was 37.531. The “SARS-CoV-2 spike driven entry” value ([11]; compound 4000 nM) was 10.003, the “SARS-CoV-2 spike driven entry” value ([11]; compound 20000 nM) was 2.2675 and the “SARS-CoV-2 spike driven entry” value ([11]; compound 100000 nM) was 1.7495. For the same compound, the IC50 ([11]; read-out: IC50 pseudotyped lentivirus Wuhan-Hu-1, Caco-2 cells, luciferase 2 days post transduction) was 467 nM.

Read-outs that look alike come from different tables or passages of the source.
